Results of single-concentration screens

Measurements from “University of Dundee, Small-Polar-MMV Screening Library” (2021), ChEMBL document CHEMBL3988442.

Mtb glucose medium: 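Whole-cell growth test on Mycobacterium tuberculosis, read after 3 days in glucose-containing 7H9 medium; the read-out is not stated. Compounds at 50 µM. Higher reads as more growth inhibition (inferred: compounds with an IC50 in retests scored well above the rest). About 69,000 compounds were tested under these conditions; 1.1% (about 760) showed 50% or more at least once.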
Mtb cholesterol medium: 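Phenotypic screen: M. tuberculosis growth, cholesterol and DPPC medium, 4 days; the read-out is not stated. Compounds at 50 µM. Direction is inferred from retests: higher values go with more growth inhibition. Of about 69,000 compounds tested this way, about 370 (0.54%) reached 50% or more in at least one test.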

Results are given as percent effect.
The record does not define 0% and 100%; most values in the screen are far below 50% and negative numbers occur (in some assays of this library far below -100).
The entries come from a sample that favours strong results.
Two or more numbers in one place are separate tests of the same structure; such repeats can differ widely.
A dash means the value is not listed here; it may have been measured.

SMILES,Mtb glucose medium,Mtb cholesterol medium
c1ccc(-c2nc3c(c(NCCn4cccc4)n2)CCNCC3)nc1,50.09,-
CC(Nc1cccc(COCc2ccco2)c1)C(=O)NC(N)=O (centres unmarked),11.64,11.79
O=C(NCc1cc(O)ncn1)C1CCOc2ccccc2C1 (centres unmarked),-,-16.06
CCc1nc(C2CCCN2c2ncc(C(F)(F)F)cc2Cl)no1 (centres unmarked),26.74 and 29.88,32.37
Cc1cc(C(=O)N2CCN(c3nc4c(C(C)C)cccc4s3)CC2)on1,58.13,65.27
Clc1ccc(C2(CNC3=NCCN3)CCCC2)cc1.I,55.47,-
Cc1ccc(NCc2ncc(C(C)(C)C)o2)c(Cl)c1,50.45 and 31.61,-
O=C1Nc2ccccc2CN(CC2CC2)C12CCNC2 (centres unmarked),46.51,4.779
CC(C)(C)Cc1nnc(NCc2ccsc2)o1,53.88,54.09
O=C(NCCc1ccn(-c2ccccc2)n1)N1CCCC(O)C1 (centres unmarked),23.82,-
CS(=O)(=O)N1CCC(Nc2ccc(C#N)c(C(F)(F)F)c2)CC1,-9.92,7.071
CC(C)CC(CO)NC(=O)NCc1csc(N(C)C)n1 (centres unmarked),3.268 and 20.56,12.4
c1cc(-c2ccc3c(c2)CCC32CCN(c3nncs3)CC2)co1,-37.6,-
CN(Cc1c(F)cccc1Cl)C(=O)CN(C)C1CCc2ccccc21 (centres unmarked),-0.1692,10.17
CC(C)=CCCC(C)(O)c1cc(C(N)=O)no1 (centres unmarked),14.12 and 15.99,12.56
CCN(C)C(=O)c1cnc(-c2noc3cc(N4CCCCC4)ccc23)s1,-33.38 and -10.21,-
CC(C)Cc1cc(C(=O)NC(C)C)[nH]n1,10.85,-3.424
NC(=O)CCSc1n[nH]c(-c2ccc3c(c2)CCC3)n1,20.44,-
CCNc1ncc2c(n1)CN(c1ccc(OC(F)(F)F)cc1)C2=O,26.23,-
O=C(NCc1ccco1)N1CCC(n2ccc(C(F)(F)F)n2)CC1,47.15,-
Nc1nc2c(c(N3CCC(CCn4cccn4)CC3)n1)CCNCC2,8.447,-
O=C(Nc1ccccc1OC1CCOC1)c1ccon1 (centres unmarked),-15.37,-
COC(=O)CCC(=O)N1CCC2(CN(Cc3ccccc3)C2)C1,-40.34,-
CCCNc1ccc(C(=O)NCCc2ccc(Cl)cc2)cn1,-,5.471
Cc1nc(C)n(CC2CCCN2CC(=O)Nc2nncs2)n1 (centres unmarked),52.95,-
Cc1nn(C)c(C)c1S(=O)(=O)NCCn1ccc(-c2cccs2)n1,-12.35,-
Cc1ccn(-c2ccccc2NCc2scnc2C)n1,50.6 and 27.16,-
NC(=O)NC1CCN(Cc2ccc(Br)c(F)c2)CC1,-2.555 and -1.2,0.568
c1cc(N2CCCCC2)ccc1-c1noc(CN2CCOCC2)n1,26.41,-
CC(C)c1noc(CN2CCN(C(=O)c3cccc(F)c3)CC2)n1,18.82 and -16.94,-
CCCc1nnc(NC2CCN(CCO)CC2)o1,7.314,-
COc1cccc(CCC(=O)N2CCN(CC(C)(C)O)CC2)c1,-29.88,-16.21
Cc1ccc(N2CCCC(c3[nH]ncc3Cc3ccccc3)C2)nn1 (centres unmarked),28.3,-
Cc1ccc2nnc(C(=O)NCCCn3cccn3)nc2c1,54.36,-
Cc1c(C(=O)NCC2CCN(C)C2)n(C)c2c(C)cccc12 (centres unmarked),-13.47,4.49
COCC(C)(CCO)NC(=O)Nc1cccc(F)c1C (centres unmarked),17.13,-
CCCn1ncc(CN2CCCC(C(=O)c3ccc(Cl)cc3C)C2)c1C (centres unmarked),-4.861 and -14.35,-
CC(C)NC(=O)c1csc(NC2CC2)n1,19.86,-
CN(C)c1ccc(CC(=O)N2CCOCC(O)C2)cc1 (centres unmarked),-26,-13.69
CCc1nc(CN(C)C2CCN(CC(=O)N3CCOCC3)C2)no1 (centres unmarked),-27.48,-
O=C(OCCNc1ncccn1)c1ccc(Cl)s1,56.49,-
CN(Cc1ccon1)C1CCN(c2cccc(-c3cscn3)c2)CC1,26.09,-
O=C(NC1CC1)c1cc(NC(=O)N2CCCC(O)C2)ccc1Cl (centres unmarked),-23.08,-
CCc1ncc(C(=O)N2CCN(C(=O)COc3ccccc3)CC2)cn1,20.22,-
COc1ccnc(N2CCN(Cc3nc(-c4ccoc4)no3)CC2)c1,-,12.28
CS(=O)(=O)Nc1ccn(Cc2ccc(F)cc2Cl)n1,-,16.48
Cc1nc(CCNc2ccc(-c3nc(C)c(C)c(=O)[nH]3)cn2)cs1,27.25,-11.68
Cc1noc(NC(=O)c2ccc(Br)o2)n1,-1.385,-
Cc1cc(C)nc(N2CCC(c3ccnc(N(C)C)n3)CC2)n1,3.847,-
COCCN1CCC1c1cc(NC2CCCC2)nc(C)n1 (centres unmarked),40,-
Cc1cc2c(=O)n3c(nc2s1)CCN(C(=O)c1sc(C)nc1C)CC3,57.14,-
Cc1c[nH]nc1C1CCCN(C(=O)c2c(C)noc2C)C1 (centres unmarked),19.3,-
CCn1nnc(NCc2cc(Br)cc(Br)c2OC)n1,38.15,-
CC(=O)NCCNC(=O)NCCCc1cccc(F)c1,11.8,-
O=c1c2cc3c(cc2nnn1Cc1ccccc1Cl)OCCO3,71.34,-
Cc1ccc(-c2cccc(N3CCC(NC4CCOCC4)CC3)c2)cc1,45.09,22.3
COc1cc(C(=O)Nc2nc(C)no2)ccc1C,73.9,-
CC(C)(CNC(=O)CSc1nnnn1C1CC1)c1ccccc1F,-2.892 and -1.479,-
O=C(NC1CCCC1)c1cnn2c(-c3ccco3)ccnc12,52.1,-
CCOC(=O)CSc1ccc(-c2nc(C)no2)cn1,27.81,-
CC(CNC(=O)c1cc(C2CC2)on1)N1CCc2ccccc21 (centres unmarked),57.18,-
Cc1cc2n(n1)CC(CNC1CCN(C(=O)C3CC3)CC1)CN2 (centres unmarked),20.01 and -3.132,-
Clc1cncc(NCc2cccc(COC3CCOCC3)c2)n1,23.25 and 22,-
CCc1nnc(CN(C)CC2CCCCC2)o1,61.38,-
NC(=O)NC(=O)CCN1CCC(C(=O)c2cc(F)ccc2F)CC1,1.068,-13.58
Cc1ccc(CN2CCCC3(CCN(Cc4ccc(C)o4)C3)C2)o1 (centres unmarked),-20.63,-
c1ccc(CCc2n[nH]c(C3CCOC3)n2)cc1 (centres unmarked),-,2.476

Repeated from the top, 6 entries:

| SMILES | Mtb glucose medium | Mtb cholesterol medium |
|---|---|---|
| `c1ccc(-c2nc3c(c(NCCn4cccc4)n2)CCNCC3)nc1` | 50.09 | - |
| `CC(Nc1cccc(COCc2ccco2)c1)C(=O)NC(N)=O` (centres unmarked) | 11.64 | 11.79 |
| `O=C(NCc1cc(O)ncn1)C1CCOc2ccccc2C1` (centres unmarked) | - | -16.06 |
| `CCc1nc(C2CCCN2c2ncc(C(F)(F)F)cc2Cl)no1` (centres unmarked) | 26.74 and 29.88 | 32.37 |
| `Cc1cc(C(=O)N2CCN(c3nc4c(C(C)C)cccc4s3)CC2)on1` | 58.13 | 65.27 |
| `Clc1ccc(C2(CNC3=NCCN3)CCCC2)cc1.I` | 55.47 | - |